# According to US11655268B2, “Nucleoside or nucleotide derivatives, and uses thereof” (ST Pharm Co., Ltd., priority 2018, dated 2023):
# Tests used:
# Details in all cases: CC50/EC50
# DENV = assay: Reduction in viral infection, dengue virus in Vero cells, immunofluorescence (4G2 antibody); type: cell-based, Dengue virus New Guinea C (NGC)
# MERS-CoV = type: cell-based, MERS virus (MERS-CoV/KOR/KNIH/002_05_2015)
# CHIKV = assay: Cytopathic effect reduction, Chikungunya virus in Vero cells, MTT; type: cell-based
# hCoV (229E) = type: cell-based, Human coronavirus hCoV 229E
# FIPV = assay: Cytopathic effect reduction, FIPV in CRFK cells, MTT; type: cell-based, feline infectious peritonitis virus (FIPV)
SMILES,SI DENV (DENV),also measured
"Cc1cccc(C(=O)Nc2ccn([C@@H]3O[C@H](CO)[C@@H](O)C3(F)F)c(=O)n2)n1 [Example 13, N-(1-((2R,4R,5R)-3,3-difluoro-4-hydroxy-5-(hydroxymethyl)tetrahydrofuran-2-yl)-2-oxo-1,2-dihydropyrimidin-4-yl)-6-methylpicolinamide]",>50.51,–
"O=C(Nc1ccn([C@@H]2O[C@H](CO)[C@@H](O)C2(F)F)c(=O)n1)c1ccccn1 [Example 2, N-(1-((2R,4R,5R)-3,3-difluoro-4-hydroxy-5-(hydroxymethyl)tetrahydrofuran-2-yl)-2-oxo-1,2-dihydropyrimidin-4-yl)picolinamide]",>138.89,SI MERS-CoV (MERS-CoV): >55.56
"O=C(Nc1ccn(C2O[C@H](CO)[C@@H](O)[C@H]2F)c(=O)n1)c1ccc([N+](=O)[O-])cn1 (stereo in doubt) [Example 30, N-(1-((2S,3R,4R,5R)-3-fluoro-4-hydroxy-5-(hydroxymethyl)tetrahydrofuran-2-yl)-2-oxo-1,2-dihydropyrimidin-4-yl)-5-nitropicolinamide]",>1.28,SI CHIKV (CHIKV): >1.60
"O=C(Nc1ccn([C@@H]2O[C@H](CO)[C@@H](O)C2(F)F)c(=O)n1)c1ccc(F)cn1 [Example 9, N-(1-((2R,4R,5R)-3,3-difluoro-4-hydroxy-5-(hydroxymethyl)tetrahydrofuran-2-yl)-2-oxo-1,2-dihydropyrimidin-4-yl)-5-fluoropicolinamide]",>74.63,–
"N#Cc1ccc(C(=O)Nc2ccn(C3O[C@H](CO)[C@@H](O)[C@H]3F)c(=O)n2)nc1 (stereo in doubt) [Example 37, 5-cyano-N-(1-((2S,3R,4R,5R)-3-fluoro-4-hydroxy-5-(hydroxymethyl)tetrahydrofuran-2-yl)-2-oxo-1,2-dihydropyrimidin-4-yl)picolinamide]",–,SI CHIKV (CHIKV): >1.93
"O=C(Nc1ccn([C@@H]2O[C@H](CO)[C@@H](O)C2(F)F)c(=O)n1)c1ccc(-c2ccccc2)cn1 [Example 25, N-(1-((2R,4R,5R)-3,3-difluoro-4-hydroxy-5-(hydroxymethyl)tetrahydrofuran-2-yl)-2-oxo-1,2-dihydropyrimidin-4-yl)-5-phenylpicolinamide]",>24.58,–
"Cc1cccnc1C(=O)Nc1ccn([C@@H]2O[C@H](CO)[C@@H](O)C2(F)F)c(=O)n1 [Example 12, N-(1-((2R,4R,5R)-3,3-difluoro-4-hydroxy-5-(hydroxymethyl)tetrahydrofuran-2-yl)-2-oxo-1,2-dihydropyrimidin-4-yl)-3-methylpicolinamide]",>16.23,–
"Nc1ccn([C@@H]2O[C@H](CO)[C@@H](O)C2(F)F)c(=O)n1 [Gemcitabine, reference compound]",–,SI MERS-CoV (MERS-CoV): 90.91; SI hCoV (229E) (hCoV (229E)): 227.27; SI FIPV (FIPV): 4.38
"O=C(Nc1ccn([C@@H]2O[C@H](CO)[C@@H](O)C2(F)F)c(=O)n1)c1cccnc1 [Example 1, N-(1-((2R,4R,5R)-3,3-difluoro-4-hydroxy-5-(hydroxymethyl)tetrahydrofuran-2-yl)-2-oxo-1,2-dihydropyrimidin-4-yl)nicotinamide]",>29.24,SI MERS-CoV (MERS-CoV): >9.62
"Cc1ccc(C(=O)Nc2ccn([C@@H]3O[C@H](CO)[C@@H](O)C3(F)F)c(=O)n2)nc1 [Example 10, N-(1-((2R,4R,5R)-3,3-difluoro-4-hydroxy-5-(hydroxymethyl)tetrahydrofuran-2-yl)-2-oxo-1,2-dihydropyrimidin-4-yl)-5-methylpicolinamide]",>39.53,–
"COc1ccc(C(=O)Nc2ccn([C@@H]3O[C@H](CO)[C@@H](O)C3(F)F)c(=O)n2)nc1 [Example 21, N-(1-((2R,4R,5R)-3,3-difluoro-4-hydroxy-5-(hydroxymethyl)tetrahydrofuran-2-yl)-2-oxo-1,2-dihydropyrimidin-4-yl)-5-methoxypicolinamide]",>76.92,–
"Cl.Nc1ccc(C(=O)Nc2ccn([C@@H]3O[C@H](CO)[C@@H](O)C3(F)F)c(=O)n2)nc1 [Example 20, 5-amino-N-(1-((2R,4R,5R)-3,3-difluoro-4-hydroxy-5-(hydroxymethyl)tetrahydrofuran-2-yl)-2-oxo-1,2-dihydropyrimidin-4-yl)picolinamide-hydrochloride]",47.44,–
"Cc1nccc(C(=O)Nc2ccn(C3O[C@H](CO)[C@@H](O)[C@H]3F)c(=O)n2)n1 (stereo in doubt) [Example 29, N-(1-((2S,3R,4R,5R)-3-fluoro-4-hydroxy-5-(hydroxymethyl)tetrahydrofuran-2-yl)-2-oxo-1,2-dihydropyrimidin-4-yl)-2-methylpyrimidin-4-carboxamide]",–,SI CHIKV (CHIKV): >4.17
"O=C(Nc1ccn(C2O[C@H](CO)[C@@H](O)[C@H]2F)c(=O)n1)c1cccnc1 (stereo in doubt) [Example 26, N-(1-((2S,3R,4R,5R)-3-fluoro-4-hydroxy-5-(hydroxymethyl)tetrahydrofuran-2-yl)-2-oxo-1,2-dihydropyrimidin-4-yl)nicotinamide]",>1.73,–
"O=C(Nc1ccn(C2O[C@H](CO)[C@@H](O)[C@H]2F)c(=O)n1)c1cccnn1 (stereo in doubt) [Example 33, N-(1-((2S,3R,4R,5R)-3-fluoro-4-hydroxy-5-(hydroxymethyl)tetrahydrofuran-2-yl)-2-oxo-1,2-dihydropyrimidin-4-yl)pyridazine-3-carboxamide]",–,SI CHIKV (CHIKV): >1.16
"O=C(Nc1ccn(C2O[C@H](CO)[C@@H](O)[C@H]2F)c(=O)n1)c1ccncn1 (stereo in doubt) [Example 36, N-(1-((2S,3R,4R,5R)-3-fluoro-4-hydroxy-5-(hydroxymethyl)tetrahydrofuran-2-yl)-2-oxo-1,2-dihydropyrimidin-4-yl)pyrimidine-4-carboxamide]",–,SI CHIKV (CHIKV): >1.73
"O=C(Nc1ccn(C2O[C@H](CO)[C@@H](O)[C@H]2F)c(=O)n1)c1cccc(-c2ccccc2)n1 (stereo in doubt) [Example 27, N-(1-((2S,3R,4R,5R)-3-fluoro-4-hydroxy-5-(hydroxymethyl)tetrahydrofuran-2-yl)-2-oxo-1,2-dihydropyrimidin-4-yl)-6-phenylpicolinamide]",4.71,SI MERS-CoV (MERS-CoV): 2.71
"Cc1nccc(C(=O)Nc2ccn([C@@H]3O[C@H](CO)[C@@H](O)C3(F)F)c(=O)n2)n1 [Example 24, N-(1-((2R,4R,5R)-3,3-difluoro-4-hydroxy-5-(hydroxymethyl)tetrahydrofuran-2-yl)-2-oxo-1,2-dihydropyrimidin-4-yl)-2-methylpyrimidin-4-carboxamide]",>46.12,–
"O=C(Nc1ccn([C@@H]2O[C@H](CO)[C@@H](O)C2(F)F)c(=O)n1)c1cccc(-c2ccccc2)n1 [Example 17, N-(1-((2R,4R,5R)-3,3-difluoro-4-hydroxy-5-(hydroxymethyl)tetrahydrofuran-2-yl)-2-oxo-1,2-dihydropyrimidin-4-yl)-6-phenylpicolinamide]",>49.08,–
